In PubChem BioAssay AID588522 (NMMLSC, 2011):
The list shows a part of the results, in another mix than the full data. Calls of active or inactive are those of the source.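 Rule for the calls: active = inhibition above the screen-wide mean plus twice its standard deviation (cut at about 32% in these data); inactive = the rest.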

system: Candida albicans drug resistance protein 1 (Cdr1) expressed in S. cerevisiae; assay: inhibitors of Candida albicans Cdr1 efflux pump, confirmation, S. cerevisiae AD/CaCDR1, flow cytometry, cherry pick 1, singleplex (AID 588522); conditions: S. cerevisiae AD/CaCDR1, Nile Red efflux, at 10 µM, stronger effect = higher value

Row | SMILES | inhibition
1 | O=P(Nc1nccs1)(c1ccccc1)c1nc2ccccc2s1 (stereo unspecified) | inactive: -0.08%
